Source: the supplement of paper PMC9931576
Where a chain is given by its changes, count along the chain named. Human monoclonal antibodies against the spike receptor-binding domain (heavy:light variable regions). IC50 against pseudoviruses bearing the spike of naturally observed variants; lower = stronger; >10 µg/ml means not reached at the top dose. No active / inactive call. The stated detection limit is 0.0005 µg/ml; values near or below 0.001 µg/ml lie at the floor of the assay.

B1: BD56-701 (protein)
chain 1: QVQLQQWGAGLLKPSETLSLTCAVYGGSFSTYYWNWIRQPPGKALEWIGEINQSGSTYYNPSLESRVTISVDTSKTQFSLNLNSVTAADTAIYYCARGGYYDSGSYYNPNFYNDYAMDVWGQGSTVTVSS
chain 2: QAGLTQPPSVSKTLRQTATLTCTGNSNNVGNQGATWLQLHQGHPPKLLSYRNNNRPSGISERFSASRSGNAASLTIAGLQPEDEADYYCSAWDSSLSAWVFGGGTKLTVL
B2: BD56-702 (protein)
chain 1: QVRLVESGGGVVQPGRSLRLSCAASGFSLSRYGIHWVRQAPGKGLEWVAVISFDGSNTYYADSVKGRFTISRDISKNTLYLQMNSLRVEDTAVYFCAKRGAPYCGGDCYASYLDYWGQGTLVTVSS
chain 2: DIQMTQSPSSLSASVGDRVTITCQASQDINNYLNWYQQKPGKAPKLLIYDASNLETGVPSRFSGSGSGIDFTFTITSLQPEDFATYYCQHYYNLPITFGPGTRLEVK
B3: BD56-708 (protein)
chain 1: EVQLVESGGGLVQPGRSLRLSCAVSGFTFHNYAMHWVRQVPGKGLEWVSGITWNSESRAYADSVKGRFTISRDNAKNFLFLQMNSLRPEDTAFYYCARDISGTYGDYFDYWGQGTLVTVAS
chain 2: SYVLTQPPSVSVAPGQAARITCGGDEIGSKSVHWYQQKPGQAPVLVINYDNDRPSGIPERFSGSNSGNTATLTISRVEAGDEADYYCQVWDSSPDHYVFGTGTKVSVL
B4: BD56-712 (protein)
chain 1: EVQLVESGGGLVQPGGSLRLSCAASGFTFSDYSMNWVRQAPGKGLEWISYITSSSTNIYHADSVKGRFTISRDNAKNSLYLQMNSLRAEDTAVYFCARDYDTSGPGDLFDYWGQGTLVTVSS
chain 2: SYVLTQPPSVSVAPGKTARIPCGGDNIGSKSVHWYQQKPGQAPVLVIYYDSDRPSGIPDRFSGSNSGNTATLTISRVEAGDEADYYCQVWDTGRVFGGGTKLTVL
B5: BD56-716 (protein)
chain 1: EVHLVESGGGLVQPGRSLRLSCAASGFTFDDYAMHWVRQAPGKGLEWVSGISWNSGSIGYADSVKGRFAISRDNAKNSLYLQMNSLRAADTALYYCAMAQGPSSSDPALYWGQGTQVTVSS
chain 2: DIQMTQSPSSVSASVGDRVTITCRASQDISSWLAWYQQKPGKAPRLLIYLASSLQSGVPSRFSGSGSGTAFTLTISSLQPEDFATYYCQQSNSFPLTFGGGTKVEIK
B6: BD56-717 (protein)
chain 1: QVQLVQSGAEVKKPGSSVKVSCKASGGTFSSYAISWVRQAPGQGLEWVGGIVPIFGTSNYAQKFRGRVTITADESTSTAYMELSSLRSEDTAVYYCATWESSHSYPGVDVWGQGTTVTVSS
chain 2: EIVLTQSPGTLSLSPGERATLSCRASQSVSSSYLAWYQQKPGQAPRLLIYGVSSRATGIPDRFSGSGSGTDFTLTISSLEPEDFAVYYCQQYGSVRTFGQGTKLEIK
B7: BD56-720 (protein)
chain 1: EVQLLESGGILVQPGGSLRLSCAASGFTFSSYAMSWVRQAPGKGLEWVSGISISGTSTYYADSVRGRFTISRDNSKNTLYLQMNSLRAEDTAVYYCAKEIPSYDNSHYYAGCYFDNWGQGTLVTVSS
chain 2: QSVLTQPPSVSAAPGQKVTISCSGSNSNIGNNYVSWYRQLPGAAPRLLIYDNNKRPSGIPDRFSGSKSGTSATLGVTGLQTGDEAEYFCGTWDSSLSAVVFGGGTKLTVL
B8: BD56-725 (protein)
chain 1: EVQLVESGGGLVQPGRSLRLSCAASGFTFDDYAMHWVRQTPGKGLEWVSGISWNSASVGYGDSVKGRFTISRDNAKNSLYLHMNSLRPEDTALYYCAKGREYSSSAEPDNWGQGTLVIVSS
chain 2: B5 chain 2 with S10T, I21V, R45K, L50G, A70D, S91T, L96I, G100Q, K103R, V104L
B9: BD56-726 (protein)
chain 1: QVQLQESGPGLVKPSETLSLTCTVSGGAVSSGSYYWSWIRQPPGEGLEWIGYIYYSGSTNYNPSLKSRVTISVDTSKNQFSLKLSSVTAADTAVYYCARDYLVVGGSGIYYNGQFYNYYGMDVWGQGTTVTVSS
chain 2: SYELTQPPSVSVSPGQTARITCSGDELPKQYAYWYQQKPGQSPVLVIYKDSERPSGIPERFSGSNSGTTVTLTISGVQAEDEADYYCQSADSSATYSWVFGGGTKLTVL
B10: BD56-728 (protein)
chain 1: EVHLVQSGAEVKKPGESLKISCKGSGYSFISYWIGWVRQMPGKGLEWMGIIYPGDSDTRYSPSFQGQVTISADKSISTTYLQWSSLKASDTAMYYCAGGSSDSGDSRGFDIWGQGTMVTVPS
chain 2: QSVLTQPPSASGTPGQRVTISCSGNSSNIGSNFVNWYQQLPGTAPKLLIYLNNQRPSGVPDRFSGSKSGTSASLAISGLQSEDEADYYCAAWDDSLNGPVFGGGTKLTVL
B11: BD56-731 (protein)
chain 1: QLQLQESGPGLVKPSETLSLTCTVSRGSISNNNYYWGWIRQPPGKGLEWIGNIDYGGSTYFNPSLKSRVTISVDTSKSQFSLKLTSVTAADTAVYHCAKYGDSRMGYWYFDLWGRGTLVTVSS
chain 2: DIQMTQSPSSLSASVGDRVTITCRASQSISNYLNWYHQKSGKAPKLLIYAASSLQSGVPSRFSGSGSETDFTLTIRSLQPEDFGTYYCQQSYSTHSITFGQGTRLEIK
B12: BD56-732 (protein)
chain 1: EVQLLESGGGLVQPGGSLRLSCAASRFIFSNYAMSWVRQAPGKGLEWVSGISGGGDSTHYADSVKGRFTISRDNSKNTLFLHMNSLRADDTAVYYCAKGARASGDYFEYWGQGTLVNVSS
chain 2: DIQMTQSPSTLSASVGDRVTITCRASQSIRNWLAWYQQKPGKAPNLLIYDASSLESGVPSRFSGSGSGTEFTLTISSLQPDDFATYYCQQYNTYPFTFGPGTKVDIK

What was measured:
Test in all cases: pseudovirus neutralization IC50; higher = weaker neutralization
[1] = target: SARS-CoV-2 Omicron BA.1 spike pseudovirus
Protocol: (§1)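 Single-round VSV luciferase pseudovirus mixed with antibody dilutions for 1 h and put on Huh-7 cells for about a day; IC50 from the dose curve.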

[2] = target: SARS-CoV-2 Omicron BA.2 spike pseudovirus
Protocol: as §1

[3] = target: SARS-CoV-2 Omicron BA.2.75 spike pseudovirus
Protocol: as §1

[4] = target: SARS-CoV-2 Omicron BA.5 spike pseudovirus
Protocol: as §1

[5] = target: SARS-CoV-2 Omicron BQ.1.1 spike pseudovirus
Protocol: as §1

[6] = target: SARS-CoV-2 Omicron XBB spike pseudovirus
Protocol: as §1

[7] = target: SARS-CoV-2 early D614G spike pseudovirus
Protocol: as §1

Row | Binder | pseudovirus neutralization IC50 [1] [µg/mL] | pseudovirus neutralization IC50 [2] [µg/mL] | pseudovirus neutralization IC50 [3] [µg/mL] | pseudovirus neutralization IC50 [4] [µg/mL] | pseudovirus neutralization IC50 [5] [µg/mL] | pseudovirus neutralization IC50 [6] [µg/mL] | pseudovirus neutralization IC50 [7] [µg/mL]
1 | B1 | 5.22 | 6.91 | 6.13 | 5.67 | 4.2 | 5.89 | 5.37
2 | B2 | 1.53 | 2.29 | 2.48 | 2.43 | 2.54 | 2.34 | 1.43
3 | B3 | 3.36 | 5.57 | 5.15 | 5.77 | > 10 | > 10 | 4.42
4 | B4 | 4.33 | 7.95 | 4.24 | 5.73 | > 10 | 6.16 | > 10
5 | B5 | 2.24 | 2.63 | 4.54 | 3.27 | 8.22 | 7.87 | 2.48
6 | B6 | > 10 | > 10 | > 10 | > 10 | > 10 | > 10 | > 10
7 | B7 | 1.27 | 1.9 | 2.15 | 3.43 | 3.5 | 4.99 | > 10
8 | B8 | 1.21 | 1.04 | 2.41 | 0.916 | 2.74 | 5.85 | 1.53
9 | B9 | 1.4 | 1.55 | 1.04 | 2.61 | 2.67 | 3.52 | > 10
10 | B10 | > 10 | > 10 | > 10 | > 10 | > 10 | > 10 | > 10
11 | B11 | 1.59 | 2.95 | 2.65 | 2.52 | 3.02 | 5.17 | > 10
12 | B12 | 4.28 | 6.08 | 5.67 | 6.69 | 7.27 | 6.6 | > 10
